Patent publication US11510899B2, “RTX toxin production inhibitor and composition for treating symptom of vibrio infection by using same” (priority 2018, dated 2022)

The chains behind the UniProt entries cited, without tags or fusion partners. Residues count along the entry.
UniProt A0A3Q0L222, 1-98: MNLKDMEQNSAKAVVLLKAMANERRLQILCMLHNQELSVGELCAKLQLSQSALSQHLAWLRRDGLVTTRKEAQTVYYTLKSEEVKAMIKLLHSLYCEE

How the values were obtained:
HlyU = HlyU (Vibrio vulnificus, UniProt A0A3Q0L222); assay: Vibrio reporter strain, pKK1305 (PrtxA-lux, activated by HlyU) in wild-type V. vulnificus; format: cell-based; conditions: for pEC50: HlyU activity (RLU, DMSO = 100%), 30° C.; for EC50 / HlyU inhibitory effect compared with CM2660 (in words): pKK1305 in wild-type V. vulnificus
Description: Meanwhile, verification experiments using the Vibrio reporter strain were also conducted so as to exclude false positive results. It was identified that the effect of the compound was not limited only to E. coli using Vibrio vulnificus, each having the reporter plasmid (pZW1608) inhibited by HlyU, which was used for the E. coli reporter strain, and the plasmid (pKK1305) in which the promoter of the rtxA gene activated by HlyU is cloned in front of the bioluminescence operon.
The constructed wild-type Vibrio reporter strain was treated with sample compounds and cultured at 30° C., and cell growth and luminescence were measured in the same manner as the E. coli strain screening (FIG. 3 and FIG. 4).
In order to identify whether or not a specific structure of CM2660 has a significant effect on HlyU inhibition, the effect of HlyU inhibition by the compound CM2660 and derivatives thereof, “Compound Group I” (FIG. 5) was verified. For the purpose, the pKK1305 plasmid prepared in Example 1 was conjugated to the wild-type Vibrio vulnificus, and the Vibrio reporter strain (pKK1305 in wild-type V. vulnificus) thus produced was treated with various concentrations of the derivative compounds.
(§1) While culturing at 30° C., the growth of the reporter strain and the degree of bioluminescence thereof were measured in the same manner as in Example 1, and the RLU was calculated. The RLU of the DMSO-treated control group was expressed as 100% HlyU activity. HlyU activity was plotted according to the concentration of the derivative compound, and EC50 (half maximal effective concentration) was calculated using GraphPad Prism 7.0 (GraphPad Software, San Diego, Calif.) (FIG. 6, Table 2).

Vibrio vulnificus = assay: Growth of Vibrio vulnificus; format: cell-based; conditions: derivative compounds in the reporter strain experiments
Description: as §1
Therefore, Vibrio vulnificus was treated with various concentrations of CM2660, and the growth of Vibrio vulnificus was observed (FIG. 20).

Row | SMILES | pEC50 (HlyU; Compound Group II) | EC50 / HlyU inhibitory effect compared with CM2660 (in words) (HlyU) | growth of Vibrio vulnificus (Vibrio vulnificus) | pEC50 (HlyU; Compound Group I)
1 | CC(C)(C)OC(=O)CNC(=O)C#Cc1ccccc1 | 5.49 | lower EC50 values than CM2660 | inhibited the growth | –
2 | CC(C)(C)OC(=O)CNC(=O)C#Cc1ccc([N+](=O)[O-])cc1 | 5.64 | lower EC50 values than CM2660 | inhibited the growth | –
3 | CCOC(=O)C#Cc1ccccc1 | 6.77 | lower EC50 values than CM2660 | inhibited the growth | –
4 | O=C(O)C#Cc1ccccc1 | 2.88 | – | – | –
5 | C#CC(=O)Nc1scc2c1c(=O)oc1ccccc12 | 5.14 | lower EC50 values than CM2660 | inhibited the growth | –
6 | COC(=O)C#Cc1cccnc1 | 6.30 | lower EC50 values than CM2660 | inhibited the growth | –
7 | CC(C)(C)C(=O)Nc1scc2c1c(=O)oc1ccccc12 | 4.15 | – | – | –
8 | Nc1scc2c1c(=O)oc1ccccc12 | – | lowest EC50 value and the highest HlyU inhibitory effect | inhibited the growth | 5.45
9 | C[Si](C)(C)C#CC(=O)O | 2.86 | – | – | –
10 | COC(=O)/C=C/c1ccccc1 | 2.75 | – | – | –

pEC50: −log10 of the molar value.
